Compound potency records, mixed from different reports. Data source: NIAID ChemDB in PubChem.

All rows: cytotoxicity tests; endpoint: CC50

CCn: concentration that lowers growth or viability of the cells by n%.

structure | method | cell line | value
O=C(NCc1ccccc1)c1cnc2c(c1)c(O)c(C(=O)NCc1ccccc1)c(=O)n2O | - | HeLa | <100 µM
O=C(c1c[nH]c2ccccc12)[C@H](O)CO | MTT | SW-480 | >40 µg/mL
COC(=O)N[C@H](C(=O)N[C@H](CCC[C@@H](CO)N(CCC(C)C)S(=O)(=O)c1ccc(CO)c(F)c1)C1CC1)C(c1ccc(F)cc1)c1ccc(F)cc1 | microscopy | T lymphoid cells | >10 µM
COc1ncc(OC)c2c(C(=O)C(=O)N3CCN(C(=O)c4ccccc4)CC3)c[nH]c12 | trypan blue | HeLa | >100 µM
O=C(NCC1CCc2ccccc2N1)Nc1ccc(Br)c2ccccc12 | - | PBMC | 50 µM
CCCN(Cc1ccccc1OCC(=O)O)C(=O)c1ccc(-c2ccc3c(c2)OCO3)cc1 | - | HEK 293 | >20 µM
C[C@H](O)Cc1cc2c(O[C@H]3O[C@H](CO)[C@@H](O)[C@H]3O)ccc(O)c2c(=O)o1 | MTT | SMMC-7721 | >40 µg/mL
CCOC(=O)c1ccnc2c1c(-c1ccc(-c3ccc(CN)cc3)cc1)cc(=O)n2O | - | HeLa | 0.32 µM
COC(=O)N[C@H](C(=O)N[C@H](CCC[C@@H](CO)N(C(C)C)S(=O)(=O)c1ccc(CO)cc1)C1CC1)C(c1ccccc1)c1ccccc1 | microscopy | T lymphoid cells | >10 µM
CCN(CC)C(=S)Nc1cccc(OCCCCCOc2ccc(-c3ccccc3)cc2)c1 | MTS | Ava5-EG(delta4AB)SEAP | >1 µM
CN1C(=O)c2c(c3cccnc3n(O)c2=O)NC1c1cccc(CN)c1 | - | HeLa | <100 µM
O=C(O)c1cc(-c2cccs2)nc2ccccc12 | - | RAJI | >20 µM
O=C(NCCc1ccc2c(n1)NCCC2)NC1CCc2ccccc2C1 | - | PBMC | 0.64 µM
COC(=O)C1=C(CN2CC(F)(F)[C@H]3[C@@H]2CCN3CC[C@](C)(O)C(=O)O)NC(c2nccs2)=N[C@H]1c1ccc(F)c(F)c1Cl | WST / absorbance | HepG2.2.15 | >50 µM
COC(=O)N[C@H](C(=O)N[C@H](CCC[C@@H](CO)N(CCC(C)C)S(=O)(=O)c1ccc(C(C)=O)cc1)C1CC1)C(c1ccc(F)cc1)c1ccc(F)cc1 | microscopy | T lymphoid cells | >10 µM
CCOC(=O)C1=C(CN2CC(F)(F)[C@@H]3[C@H]2CON3C[C@H](OC)C(C)(C)C(=O)O)NC(c2nccs2)=N[C@H]1c1ccc(F)cc1Cl | WST / absorbance | HepG2.2.15 | 100 µM
O=c1c(-c2ccc(Cl)cc2)c(O)c2cccnc2n1O | - | HeLa | <100 µM
NC(=S)Nc1cccc(OCCCCCOc2ccc(F)cc2F)c1 | MTS | Ava5-EG(delta4AB)SEAP | >1 µM
O=C(C(=O)N1CCN(C(=O)c2ccccc2)CC1)c1c[nH]c2c(N3CCOCC3)ncc(F)c12 | trypan blue | HeLa | >100 µM
O=C1Cn2c(nc3c(c2=S)C2=C(CCC/C2=C\c2ccncc2)C(c2ccncc2)S3)S1 | MTT | MGC-803 | 46.8 µM
COc1cnc(-c2ncon2)c2[nH]cc(C(=O)C(=O)N3CCN(C(=O)c4ccccc4)[C@H](C)C3)c12 | trypan blue | HeLa | >100 µM
COC(=O)NC(C(=O)N[C@@H](C)CCC[C@@H](CO)N(C(C)C)S(=O)(=O)c1ccc(CO)cc1)C(c1cccc(F)c1)c1cccc(F)c1 | microscopy | T lymphoid cells | >10 µM
NC(=O)c1[nH]c2c(c1N)C1=C(CCC/C1=C\c1ccncc1)C(c1ccncc1)S2 | MTT | KB | >50 µM
CCOC(=O)C1=C(CN2CC(F)(F)[C@@H]3[C@H]2CON3C[C@@H](F)C(C)(C)C(=O)O)NC(c2nccs2)=N[C@H]1c1ccc(F)cc1Cl | WST / absorbance | HepG2.2.15 | >25 µM
COc1ccc(-c2cc(C(=O)O)c3ccccc3n2)cc1OC | - | RAJI | >20 µM
S=C(Nc1cccnc1)Nc1ccc2c(c1)Cc1cc(Br)ccc1-2 | MTS | Ava5-EG(delta4AB)SEAP | >1 µM
COc1cnc(-n2ccnn2)c2[nH]cc(C(=O)C(=O)N3CCN(C(=O)c4ccccc4)[C@H](C)C3)c12 | trypan blue | HeLa | >100 µM
CCCC(=O)Nc1ccc2c(c1)Cc1cc(NC(N)=S)ccc1-2 | MTS | Ava5-EG(delta4AB)SEAP | >1 µM
CCCN([C@H](CO)CCC[C@H](CC)NC(=O)[C@H](Cc1ccccc1Cl)NC(=O)OC)S(=O)(=O)c1ccc(N)cc1 | microscopy | T lymphoid cells | >10 µM
CC(C)C[C@@H]1NC(=O)[C@H](Cc2c[nH]c3ccccc23)NC(=O)CNC(=O)[C@H](CC(N)=O)NC(=O)[C@H](C(C)C)NC(=O)[C@H](CC(C)C)NC1=O | MTT | Colorectal carcinoma | >30 µM
O=C(NCCCc1ccc2c(n1)NCCC2)NCc1ccc(Cl)c(Cl)c1 | - | PBMC | 6.1 µM
N#Cc1c(N)c2c3c([nH]c2[nH]c1=O)SC(c1ccncc1)C1=C3/C(=C/c2ccncc2)CCC1 | MTT | KB | 13.9 µM
CC(C)C[C@@H]1NC(=O)[C@H](Cc2c[nH]c3ccccc23)NC(=O)[C@@H](CC2CCCCC2)NC(=O)[C@H](CCCCN)NC(=O)[C@H](C(C)C)NC(=O)[C@@H](CC(C)C)NC1=O | MTT | Lung carcinoma cells | >30 µM
CN1CCN(C(=S)Nc2cccc(OCCCCCOc3ccc(-c4ccccc4)cc3)c2)CC1 | MTS | Ava5-EG(delta4AB)SEAP | >1 µM
N#CC1=C(N)SC(c2ccncc2)C2=C1/C(=C/c1ccncc1)CCC2 | MTT | MGC-803 | >50 µM
O=C(NCCc1ccc2c(n1)NCCC2)Nc1ccc(N2CCOCC2)nc1 | - | PBMC | 50 µM
NNC(=O)c1ccncc1 | MTT | Colorectal carcinoma | >30 µM
O=C(Nc1ccc2c(c1)OCO2)c1cc(-c2cccs2)nc2ccccc12 | - | HEK 293 | >20 µM
C[C@@H]1CN(C(=O)C(=O)c2c[nH]c3c(-n4ccnn4)ncc(F)c23)CCN1C(=O)c1ccccc1 | trypan blue | HeLa | >100 µM
O=C(NCCc1ccc2c(n1)NCCC2)N[C@@H]1C[C@H]1c1ccccc1 | - | PBMC | 5.5 µM
CCOC(=O)C1=C(CN2CC(F)(F)[C@H]3[C@@H]2CCN3C[C@H](F)C(C)(C)C(=O)O)NC(c2nc(C)cs2)=N[C@H]1c1cccc(F)c1C | WST / absorbance | HepG2.2.15 | 34.4 µM
O=C(C(=O)N1CCN(C(=O)c2ccccc2)CC1)c1c[nH]c2c(-c3ncco3)ccnc12 | trypan blue | HeLa | >100 µM
CC(C)C[C@@H]1NC(=O)[C@H](Cc2c[nH]c3ccccc23)NC(=O)[C@@H](Cc2ccccc2)NC(=O)[C@H](CCCCN)NC(=O)[C@H](C(C)C)NC(=O)[C@@H](CC(C)C)NC1=O | MTT | Lung carcinoma cells | >30 µM
NC(=S)Nc1cccc(OCCCCCCCCOc2cccc3ccccc23)c1 | MTS | Ava5-EG(delta4AB)SEAP | >1 µM
CN[C@H](C(=O)N[C@H](CCC[C@@H](CO)N(CCC(C)C)S(=O)(=O)c1ccc(CO)cc1)C(C)C)C(c1ccccc1)c1ccccc1 | microscopy | T lymphoid cells | >10 µM

Again, the opening 4 rows:

{"structure": "O=C(NCc1ccccc1)c1cnc2c(c1)c(O)c(C(=O)NCc1ccccc1)c(=O)n2O", "cell line": "HeLa", "value": "<100 µM"}
{"structure": "O=C(c1c[nH]c2ccccc12)[C@H](O)CO", "method": "MTT", "cell line": "SW-480", "value": ">40 µg/mL"}
{"structure": "COC(=O)N[C@H](C(=O)N[C@H](CCC[C@@H](CO)N(CCC(C)C)S(=O)(=O)c1ccc(CO)c(F)c1)C1CC1)C(c1ccc(F)cc1)c1ccc(F)cc1", "method": "microscopy", "cell line": "T lymphoid cells", "value": ">10 µM"}
{"structure": "COc1ncc(OC)c2c(C(=O)C(=O)N3CCN(C(=O)c4ccccc4)CC3)c[nH]c12", "method": "trypan blue", "cell line": "HeLa", "value": ">100 µM"}

Conditions beyond the fields shown may differ between rows. An empty or dashed field is not shown.